Results published in PMC8907557.
pKd: −log10 of the molar value.

Experiments:
[1] = biological target: histone H3 (UniProt P68431); assay: SPR; conditions: domain or fragment
[2] = biological target: histone H4 (UniProt P62805); assay: SPR; conditions: domain or fragment

## SARS-CoV-2 spike protein ectodomain (S1 and S2) (from UniProt P0DTC2 14-1213)
[1]
  pKd: 6.36
[2]
  pKd: 6.66
